Reference: patent publication US10786542B2 (priority 2016, dated 2020)

Sequences of proteins named here, by UniProt entry; tags and fusion partners are left off. A change or cut given only in a name is not applied to a line headed by its entry.
UniProt P33527: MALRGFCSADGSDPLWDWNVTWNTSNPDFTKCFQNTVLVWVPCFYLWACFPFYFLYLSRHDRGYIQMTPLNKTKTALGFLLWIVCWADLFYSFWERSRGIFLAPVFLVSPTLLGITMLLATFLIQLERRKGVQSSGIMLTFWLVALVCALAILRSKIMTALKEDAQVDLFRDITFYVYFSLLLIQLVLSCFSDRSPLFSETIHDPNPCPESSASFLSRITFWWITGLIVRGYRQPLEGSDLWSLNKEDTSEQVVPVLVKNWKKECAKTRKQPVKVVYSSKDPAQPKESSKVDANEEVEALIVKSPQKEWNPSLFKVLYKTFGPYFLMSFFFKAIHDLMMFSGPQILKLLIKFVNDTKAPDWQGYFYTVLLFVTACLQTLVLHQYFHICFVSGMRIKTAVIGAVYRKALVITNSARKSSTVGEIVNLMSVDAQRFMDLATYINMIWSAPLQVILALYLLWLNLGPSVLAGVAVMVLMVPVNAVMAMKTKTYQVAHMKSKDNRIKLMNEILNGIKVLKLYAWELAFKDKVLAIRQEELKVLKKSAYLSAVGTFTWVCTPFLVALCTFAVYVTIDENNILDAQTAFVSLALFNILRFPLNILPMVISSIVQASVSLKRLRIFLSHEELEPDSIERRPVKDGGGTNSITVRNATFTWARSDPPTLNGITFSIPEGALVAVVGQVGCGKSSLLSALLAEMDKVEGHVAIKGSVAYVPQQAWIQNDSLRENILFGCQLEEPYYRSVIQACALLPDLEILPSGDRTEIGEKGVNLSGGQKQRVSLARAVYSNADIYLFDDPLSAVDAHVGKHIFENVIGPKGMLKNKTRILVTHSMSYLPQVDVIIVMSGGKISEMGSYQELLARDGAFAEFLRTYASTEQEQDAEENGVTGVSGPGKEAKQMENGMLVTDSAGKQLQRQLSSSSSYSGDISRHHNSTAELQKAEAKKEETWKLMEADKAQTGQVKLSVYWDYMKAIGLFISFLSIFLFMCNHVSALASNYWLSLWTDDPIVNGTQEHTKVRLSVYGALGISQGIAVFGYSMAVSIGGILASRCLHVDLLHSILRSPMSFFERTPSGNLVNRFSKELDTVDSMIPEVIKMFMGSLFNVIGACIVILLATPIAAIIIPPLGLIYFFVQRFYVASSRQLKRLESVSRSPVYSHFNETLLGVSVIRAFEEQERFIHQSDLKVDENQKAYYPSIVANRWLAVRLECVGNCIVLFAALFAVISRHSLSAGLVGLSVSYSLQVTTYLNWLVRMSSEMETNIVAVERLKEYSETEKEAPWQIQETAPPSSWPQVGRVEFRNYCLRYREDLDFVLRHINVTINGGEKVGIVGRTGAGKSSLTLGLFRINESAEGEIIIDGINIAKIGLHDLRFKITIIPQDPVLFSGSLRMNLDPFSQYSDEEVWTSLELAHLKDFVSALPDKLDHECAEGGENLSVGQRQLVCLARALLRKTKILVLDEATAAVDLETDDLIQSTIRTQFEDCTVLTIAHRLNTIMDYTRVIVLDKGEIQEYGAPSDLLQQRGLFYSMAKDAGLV

Target: MRP1 (Homo sapiens, UniProt P33527)
Experiment: Calcein efflux (MRP1 activity) in A549 tumor cells
Settings: read-out: IC50 for inhibition of efflux of MRP1 substrate calcein

C=CS(=O)(=O)C=C
IC50: 5.8 nM
